Laboratory results reported in paper PMC11723632, “Discovery of Nanosota-EB1 and -EB2 as Novel Nanobody Inhibitors Against Ebola Virus Infection” (2024).

Test system: EBOV GP-ΔM (EBOV GP ectodomain lacking the mucin-like domain), Ebola virus (EBOV), strain Zaire, Q05320 33-632

## EBOV GP-ΔM (EBOV GP ectodomain lacking the mucin-like domain) excluding residues 312–463; N-linked glycan on Asn563; N-linked glycan on Asn563
  stoichiometry N: 3
